Source: US12629392B2, “Method of treating covid-19 infection using superparamagnetic iron oxide nanoparticle” (Imam Abdulrahman Bin Faisal University, priority 2023, dated 2026)

Test system: A549 cells
Test: Cell viability (MTT) assay, A549 cells
Settings: 48 hours, FIG. 5A

NC(=O)c1ncn([C@@H]2O[C@H](CO)[C@@H](O)[C@H]2O)n1 [Rib, 1-β-D-Ribofuranosyl-1,2,4-triazole-3-carboxamide]
cell viability / cytotoxic potential (MTT), result in words: significant reduction in cell viability
